Measured values: paper PMC11873239, “A covalent chemical probe for Chikungunya nsP2 cysteine protease with antialphaviral activity and proteome-wide selectivity” (Scientific Reports, 2025)

Tested on: CHIKV nsP2
Assay: TAMRA labelling of purified or lysate-spiked nsP2
Type: binding, Chikungunya virus
Conditions: for TAMRA labelling of nsP2: purified nsP2 or nsP2 (4 µg) spiked in HEK293 lysate, 10 µM (VSS 10 or 100 µM)

Row | Structure (SMILES) | TAMRA labelling of nsP2 | TAMRA labelling of nsP2 by VS after preincubation with the compound (10 µM, 30 min preincubation, HEK293 lysate plus nsP2)
1 | C#CCOc1ccc(-c2cc(NC(=O)CCl)n[nH]2)cc1 [CA, reference compound] | labeled | 
2 | CN(C)c1ccc2c(-c3cc(C(=O)NCCCCCCn4cc(COc5ccccc5-c5cc(C(=O)NC/C=C/S(C)(=O)=O)on5)nn4)ccc3C(=O)O)c3ccc(=[N+](C)C)cc-3oc2c1 [TVS, (E)-N-(9-(2-carboxy-4-((6-(4-((2-(5-((3-(methylsulfonyl)allyl)carbamoyl)isoxazol-3-yl)phenoxy)meth-yl)−1H-1,2,3-triazol-1-yl)hexyl)carbamoyl)phenyl)−6-(dimethylamino)−3H-xanthen-3-ylidene)-N-methyl methanaminium] | efficient labelling | 
3 | C#CCOc1ccccc1-c1cc(C(=O)NC/C=C/S(C)(=O)=O)on1 [VS, (E)-N-(3-(methylsulfonyl)allyl)−3-(2-(prop-2-yn-1-yloxy)phenyl)isoxazole-5-carboxamide] | efficient TAMRA labeling of nsP2 | 
4 | CS(=O)(=O)/C=C/CNC(=O)c1cc(-c2ccccc2)no1 [VSC, (E)-N-(3-(methylsulfonyl)allyl)−3-phenylisoxazole-5-carboxamide] |  | no TAMRA labelling of nsP2 was observed
